Measured values reported in paper PMC8299157 (Antiviral Research, 2021).

Target: nsp14 (Severe acute respiratory syndrome coronavirus 2, UniProt P0DTD1)
Conditions: read-out: dissociation constant KD

Row | Substance | Kd [nM]
1 | Gp3A-3′-O-(5)FAM | 1660 ± 310
2 | S-(N^6-trFluoadenosyl)-L-homocysteine [SAH-N6-6tFluo] | 3160 ± 540
